Source: patent publication US20120207760A1, “Compositions and Methods for the Therapy and Diagnosis of Influenza” (THERACLONE SCIENCES, published 2012)

These binders were tested against recombinant soluble homotrimeric HA of A/common magpie/Hong Kong/5052/07 (H5N1) (Influenza A virus A/common magpie/Hong …) (assay: not given).

Row | Binder | Trimeric HA Binding: RLU [RLU]
1 | TCN-540 (5060_F05) (antibody, V domains shown) VH: QVQLVQSGGGVVQPGRSLRLSCAASGFTFSSYAMHWVRQAPGKGLEWVAIISYDGNDQYYTDSVKGRFTISRDSSKVYLQMHRLRPEDTAVYYCAKEFETSGYFHGSFDYWGQGILVTVSS VL: QSALTQPASVSGSPGQSITISCTGTSSDVGGYNYVSWYQQHPGKAPKLLIYEVTNWPSGVSNRFSGSKSGNTASLTISGLQAEDEADYYCSSYAGSSTWVFGGGTRVTVL [TCN-540 (5060_F05), listing 1 of 2 here] | 113
2 | TCN-551 (5243_D01) (antibody, V domains shown) VH: EVQLVQSGSEVKKPGESLKISCKGSGYSFSNYWIGWVRHMPGKGLEWMGIIYPGDSDTRYSPSFQGQVTMSADKSSSTVYLQWSSLKASDTAIYYCARRGGHSFGYGSGGDTHSEFDSWGQGTLVTVSS VL: QSVLTQSPSVSAAPGQKVTISCSGSDSNIGDYFVCWYQHLPGKPPQLLIYENNKRPSGIPDRFSGSKSGTSATLGITGIQTGDEADYYCATWDGSLSAWVFGGGTKLTVL | 45700
3 | TCN-552 (5249_I23) (antibody, V domains shown) VH: QVQVVQSGAEVKKPGSSVRVSCQASGGTFMNYAIIWVRRAPGQGLEWMGGIIPVFPTPNYAQMFQGRVTISTDESRSTSFLELTNLRYEDTAVYYCARRIYHGGNSGFDFWGQGTLVTVSS VL: EIVLTQSPATLSLSPGERATLSCRASQSVGNYLAWYQQKPGQAPRLLIYDSSNRAPGIPARFSGSGSGTDFTLTISSLAPEDFAVYYCQQRSKWPPMYSFGHGTKLEIK [TCN-552 (5249_I23), listing 1 of 2 here] | 42200
4 | TCN-553 (5261_C18) (antibody, V domains shown) VH: QVQVVQSGTEVKKPGSSVKVSCQTSGGRFMSYAITWVRQAPGQGLEWMGGIVPVFGTANYAQKFQGRVTITTDDSTRTAYMELSSLRSEDTAVYYCGFRYGSGYGFDSWGQGTLVTVSS VL: EIVLTQSPGTLSLSPGERATLSCRASQSVSSSYLAWYQKKPGQAPRLLIYGASTRATGIPDRFTGSGSGTDFTLSISRLEPEDFAVYYCQHFGTSVFTFGGGTKVEIK [TCN-553 (5261_C18), listing 1 of 2 here] | 26000
5 | TCN-555 (5246_L16) (antibody, V domains shown) VH: QVQLVQSGAEVKRPGSSVKVSCTASGGIFRKNAISWVRQAPGQGLEWMGGIIAVFNTANYAQKFQNRVKITADESGNTAYMELSSLTSDDTAVYYCASHPKYFYGSGSYPDFWGQGTLVTVSS VL: QSALTQPRSVSGSPGQSITISCTGGSSDIGASNSVSWYQQHPGKAPKLVIFDVTERPSGVPHRFSGSKSGNTASLTVSGLQPDDEADYFCCAYGGKYLVVFGGGTKVTVL [TCN-555 (5246_L16), listing 1 of 2 here] | 16100

Each binder was assayed against recombinant soluble homotrimeric HA of A/Common magpie/Hong Kong/5052/07 - H5N1 (Influenza A virus A/common magpie/Hong …) (assay: micro-array; captured IgG, V5-tagged trimeric HA).

Row | Binder | Trimeric HA Binding: RLU [RLU]
6 | TCN-536 (5095_N01) (antibody, V domains shown) VH: QVQLQQWGAGLLKPSETLSLTCAVYGGSFSVSGYYWSWIRQPPGRGLEWIGEISHGGSTNYNPSLKSRVTISVDTTKNQFSLRLSSVTAADTAVYYCARGTDPDTEVYCRVGNCAAFDYWGQGSLVTVSS VL: EIILAQSPGTLSLSPGERATLSCRASQFVSTRSLAWYQQRPGQAPRLLIYGASSRATGIPDRFSGSGSGTDFTLTISRLEPEDFAVYYCQHYGYSPRYAFGQGSKVEIK | 27
7 | TCN-540 (5060_F05) (antibody, V domains shown) VH: QVQLVQSGGGVVQPGRSLRLSCAASGFTFSSYAMHWVRQAPGKGLEWVAIISYDGNDQYYTDSVKGRFTISRDSSKVYLQMHRLRPEDTAVYYCAKEFETSGYFHGSFDYWGQGILVTVSS VL: QSALTQPASVSGSPGQSITISCTGTSSDVGGYNYVSWYQQHPGKAPKLLIYEVTNWPSGVSNRFSGSKSGNTASLTISGLQAEDEADYYCSSYAGSSTWVFGGGTRVTVL [TCN-540 (5060_F05), listing 2 of 2 here] | 1800
8 | TCN-543 (5081_G23) (antibody, V domains shown) VH: QVHLVQSGAEVRKPGDSVKVSCKTSGYTFSTYPVAWVRQVPGQGLEWMGWISTYNGNTNFAQNFQGRVTLTTDTTTNTAYMEVRSLKFDDTAVYYCARVEGSYRDFWNNQNRFDPWGQGTLVTVSS VL: SYVLTQPPSVSVAPGQTARISCGGSNIGGKSVHWYQQKPGQAPVLVVYDDSGRPSGIPERFSGSNSGDTATLTISRVEAGDEADYFCQVWDNFGGVFGTGTKVTVL | 1070
9 | TCN-545 (5082_I15) (antibody, V domains shown) VH: QVQLQQWGAGLLKPSETLSLSCAVFGGSFSDYYWTWIRQPPGKGLEWIGEIKHSGRTNYNPSLESRVTISVDTSKNQFSLKLSSVTAADTAIYYCARGTDPDTEGYCRSGSCSAFDFWGQGTLVTVSS VL: EIVLTQSPGTLSLSPGERATLSCRASHFVNYRSLAWYQQTPGQVPRLLIYGASTRATGIPDRFSGSGSGTDFTLTISRLEPEDFAVYFCQQYGGSPRYTFGQGTRLEIK | 1390
10 | TCN-546 (5089_L08) (antibody, V domains shown) VH: QVQLQQWGAGLLKPSETLSLTCGVYGGSLSDYYWSWIRQPPGKGLEWIGEINHSGGTNYNPSLKRRVTISVDTSKKQFSLKMNSVTAADTAVYYCARGTDPDTEVYCRAGNCAAFDFWGQGTLVTVSS VL: EIVLTQSPGTLSLSPGERATLSCRASHFVIGRAVAWYQQKPGQAPRLLIYGASSRATGIPDRFSGSGSGTDFTLTISRLETEDFAVFYCQHYGSSPRYAFGQGTKLEIK | 1920
11 | TCN-550 (5096_F06) (antibody, V domains shown) VH: QVQLQESGPGLVKPSETLSLTCTVSGASINSHYWSWIRQPPGKGLEWIGYVYYSGSTTYNPSLKSRVTLSVDTSKNQFSLNLSSVTAADTAFYYCARHPYDVLTGSGDWFDPWGQGTLVTVSS VL: SYVLTQAPSVSVAPGQTARITCGGNAIGSKKVHWYQHKAGQAPVLVVYDDTDRPSGIPERFSGSNSWSTATLTINRVEAGDEADYYCQVWDFTIDHVVFGGGTKLTVL | 993
12 | TCN-552 (5249_I23) (antibody, V domains shown) VH: QVQVVQSGAEVKKPGSSVRVSCQASGGTFMNYAIIWVRRAPGQGLEWMGGIIPVFPTPNYAQMFQGRVTISTDESRSTSFLELTNLRYEDTAVYYCARRIYHGGNSGFDFWGQGTLVTVSS VL: EIVLTQSPATLSLSPGERATLSCRASQSVGNYLAWYQQKPGQAPRLLIYDSSNRAPGIPARFSGSGSGTDFTLTISSLAPEDFAVYYCQQRSKWPPMYSFGHGTKLEIK [TCN-552 (5249_I23), listing 2 of 2 here] | 34600
13 | TCN-553 (5261_C18) (antibody, V domains shown) VH: QVQVVQSGTEVKKPGSSVKVSCQTSGGRFMSYAITWVRQAPGQGLEWMGGIVPVFGTANYAQKFQGRVTITTDDSTRTAYMELSSLRSEDTAVYYCGFRYGSGYGFDSWGQGTLVTVSS VL: EIVLTQSPGTLSLSPGERATLSCRASQSVSSSYLAWYQKKPGQAPRLLIYGASTRATGIPDRFTGSGSGTDFTLSISRLEPEDFAVYYCQHFGTSVFTFGGGTKVEIK [TCN-553 (5261_C18), listing 2 of 2 here] | 39200
14 | TCN-555 (5246_L16) (antibody, V domains shown) VH: QVQLVQSGAEVKRPGSSVKVSCTASGGIFRKNAISWVRQAPGQGLEWMGGIIAVFNTANYAQKFQNRVKITADESGNTAYMELSSLTSDDTAVYYCASHPKYFYGSGSYPDFWGQGTLVTVSS VL: QSALTQPRSVSGSPGQSITISCTGGSSDIGASNSVSWYQQHPGKAPKLVIFDVTERPSGVPHRFSGSKSGNTASLTVSGLQPDDEADYFCCAYGGKYLVVFGGGTKVTVL [TCN-555 (5246_L16), listing 2 of 2 here] | 33600
15 | TCN-557 (5081_A04) (antibody, V domains shown) VH: QVQLVQSGAEVKKPGASVKVSCKASGHTFTGYYIHWVRQAPGQGLEWMGWINPDSGATSSAQNFQGRVTMTGDTSSSTAYMELSRLSFDDTAVYYCARVLFTSPFDFWGEGTLVTVSS VL: QAVVTQEPSLAVSPGGTVTLTCGSSTGAVTRGHYPYWFQQKPGQAPRALIYDSAGNRHSWTPARFSGSLLGGKAALTLSGAQPEDEAEYYCLLSYSGVWVFGGGTKLTVL | 54900
